{"source": "PubChem BioAssay AID1259414 (Drosophila RNAi Screening Center, 2018)", "test": "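Genome-wide screen for host control of endosymbiont load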 (primary screen)", "system": "Drosophila JW18 cells infected with Wolbachia", "reagents": "long dsRNA against Drosophila genes, 0.25 µg dsRNA per well of a 384-well plate", "timing": "5 days", "treatment": "cells persistently infected with Wolbachia before knock-down; no added drug", "measurement": "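Automated imaging of bacterial rRNA staining divided by host cell count, reported as plate-normalised robust z-score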", "scale": "Wolbachia per cell robust z: higher = more Wolbachia per host cell than the plate typical", "call rule": "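Hit when robust z is 1.5 or more, or -1.5 or less, in at least two of three replicates; excludes dsRNAs with several or no targets, genes not expressed in JW18 and well A1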", "note": "The screen tested about 24,000 reagents; this is an unselected part of those that have a named target and a result. Over the whole deposit, about 1,210 (5%) got an active call. 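Inactive calls also include excluded dsRNAs with several or no targets, genes unexpressed in JW18, and well A1, regardless of score.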"}
The opening 2 records, ahead of the listing:
{"target gene": "CG10616", "DRSC id": "DRSC09750", "Wolbachia per cell robust z, rep 1": 0.602, "Wolbachia per cell robust z, rep 2": 0.603, "Wolbachia per cell robust z, rep 3": -1.3, "activity call": "inactive"}
{"target gene": "brk (brinker)", "DRSC id": "DRSC23036", "Wolbachia per cell robust z, rep 1": 0.148, "Wolbachia per cell robust z, rep 2": -4.42, "Wolbachia per cell robust z, rep 3": -3.18, "activity call": "active"}

Main list, from the first entry:
{"target gene": "CG10616", "DRSC id": "DRSC09750", "Wolbachia per cell robust z, rep 1": 0.602, "Wolbachia per cell robust z, rep 2": 0.603, "Wolbachia per cell robust z, rep 3": -1.3, "activity call": "inactive"}
{"target gene": "brk (brinker)", "DRSC id": "DRSC23036", "Wolbachia per cell robust z, rep 1": 0.148, "Wolbachia per cell robust z, rep 2": -4.42, "Wolbachia per cell robust z, rep 3": -3.18, "activity call": "active"}
{"target gene": "brk (brinker)", "DRSC id": "DRSC27320", "Wolbachia per cell robust z, rep 1": 0.375, "Wolbachia per cell robust z, rep 2": -0.633, "Wolbachia per cell robust z, rep 3": 0.639, "activity call": "inactive"}
{"target gene": "Corin", "DRSC id": "DRSC06818", "Wolbachia per cell robust z, rep 1": 0.301, "Wolbachia per cell robust z, rep 2": 1.29, "Wolbachia per cell robust z, rep 3": 1.17, "activity call": "inactive"}
{"target gene": "Corin", "DRSC id": "DRSC28927", "Wolbachia per cell robust z, rep 1": 0.742, "Wolbachia per cell robust z, rep 2": -0.419, "Wolbachia per cell robust z, rep 3": 0.123, "activity call": "inactive"}
{"target gene": "CG2841", "DRSC id": "DRSC18824", "Wolbachia per cell robust z, rep 1": -0.216, "Wolbachia per cell robust z, rep 2": 0.442, "Wolbachia per cell robust z, rep 3": 0.622, "activity call": "inactive"}
{"target gene": "CG2841", "DRSC id": "DRSC22106", "Wolbachia per cell robust z, rep 1": 1.02, "Wolbachia per cell robust z, rep 2": 0.228, "Wolbachia per cell robust z, rep 3": 1.36, "activity call": "inactive"}
{"target gene": "sordd1", "DRSC id": "DRSC28653", "Wolbachia per cell robust z, rep 1": 1.17, "Wolbachia per cell robust z, rep 2": -0.623, "Wolbachia per cell robust z, rep 3": -0.676, "activity call": "inactive"}
{"target gene": "w (white)", "DRSC id": "DRSC18850", "Wolbachia per cell robust z, rep 1": 0.893, "Wolbachia per cell robust z, rep 2": -1.46, "Wolbachia per cell robust z, rep 3": 0.15, "activity call": "inactive"}
{"target gene": "w (white)", "DRSC id": "DRSC30065", "Wolbachia per cell robust z, rep 1": -0.939, "Wolbachia per cell robust z, rep 2": -0.282, "Wolbachia per cell robust z, rep 3": -1.36, "activity call": "inactive"}
{"target gene": "Aasdh (Aminoadipate-semialdehyde dehydrogenase)", "DRSC id": "DRSC03467", "Wolbachia per cell robust z, rep 1": 0.338, "Wolbachia per cell robust z, rep 2": -7.13, "Wolbachia per cell robust z, rep 3": -0.419, "activity call": "inactive"}
{"target gene": "Cluap1 (Clusterin associated protein 1)", "DRSC id": "DRSC20637", "Wolbachia per cell robust z, rep 1": -0.000471, "Wolbachia per cell robust z, rep 2": 0.284, "Wolbachia per cell robust z, rep 3": 1.57, "activity call": "inactive"}
{"target gene": "Cluap1 (Clusterin associated protein 1)", "DRSC id": "DRSC23735", "Wolbachia per cell robust z, rep 1": -0.949, "Wolbachia per cell robust z, rep 2": -1.32, "Wolbachia per cell robust z, rep 3": -0.975, "activity call": "inactive"}
